A mixed list of measured activities; the numbers were collected in NIAID ChemDB.

Shared fields: growth or infection tests; agent: Varicella zoster virus; cells: HEL; endpoint: EC50

Neighbouring rows are from separate reports.

compound	strain or isolate	method	result
Nc1nc2nn(CCOCP(=O)(O)O)nc2c(=O)[nH]1	YS/R (TK-)	cytopathic effect	40 µg/mL
CC1(C)[C@@H](CCO)C[C@H]1n1nnc2c(=O)[nH]c(N)nc21	TK+/YS	plaque count	>50 µg/mL
Nc1ncnc2nn(C[C@@H](CO)OCP(=O)(O)O)nc12	07/1 (TK-)	cytopathic effect	>100 µg/mL
CCCCCC#Cc1c[nH]c(=O)[nH]c1=O	OKA	plaque count	>80 µM
CO[C@@H]1[C@H](O)[C@@H](CO)O[C@H]1c1ccccc1	07/1	plaque count	>50 µg/mL
CC(C)Nc1ncnc2c1ncn2C1C[C@H](CO)[C@@H](CO)C1	YS/R (TK-)	-	>100 µg/mL
Nc1ncnc2c1ncn2C[C@@H](CO)OCP(=O)(O)O	YS/R (TK-)	cytopathic effect	0.004 µg/mL
O=c1[nH]cnc2c1ncn2C1C[C@H](CO)[C@@H](CO)C1	YS/R (TK-)	-	>100 µg/mL
Nc1ccn(C[C@@H](CO)OCP(=O)(O)O)c(=O)n1	Oka BVaraU-resistant	cytopathic effect	0.1 µM
OC[C@H]1O[C@@H](c2cc(C#CI)c(F)cc2F)C[C@@H]1O	07/1 (TK-)	plaque count	>20 µM
COc1ccc(-c2cc3cn([C@H]4C[C@H](O)[C@@H](CO)O4)c(=O)nc3o2)cc1	YS	plaque count	0.045 µM
Cc1cc([C@@H]2C[C@H](O)[C@@H](CO)O2)c(Cl)cc1F	(TK-)/YS/R	plaque count	>200 µM
CCCCCCCCCCCCc1cc2cn([C@H]3C[C@H](O)[C@@H](CO)O3)c(=O)nc2o1	YS/R (TK-)	plaque count	>50 µM
OC[C@H]1O[C@@H](c2cc(I)c(F)cc2F)C[C@@H]1O	(TK+)/OKA	plaque count	>200 µM
C=Cc1cc([C@H]2C[C@H](O)[C@@H](CO)O2)c(F)cc1F	07/1 (TK-)	plaque count	>200 µM
O=c1[nH]c(=O)n([C@@H]2O[C@H](CO)[C@@H](O)[C@@H]2O)cc1/C=C/Br	Oka PFA-resistant/B	cytopathic effect	0.00027 µM
N#Cc1cc([C@H]2C[C@H](O)[C@@H](CO)O2)c(F)cc1F	(TK+)/OKA	plaque count	>200 µM
Nc1nc2c(ncn2CCOCP(=O)(O)O)c(=O)[nH]1	OKA (TK+)	plaque count	0.001 µg/mL
Nc1nc2c(ncn2CC(CO)CCO)c(=O)[nH]1	TK-	-	>100 µM
CCCCCCCCC#Cc1cn(S(=O)(=O)c2ccc(C)cc2)c(=O)[nH]c1=O	07/1	plaque count	10 µM
CC1(C)[C@@H](CCO)C[C@H]1n1cnc2c(=O)[nH]c(N)nc21	(TK+)/OKA	plaque count	>50 µg/mL
Nc1nc2c(ncn2COC(CO)CO)c(=O)[nH]1	TK-	-	80 µM
Nc1nc2c(ncn2CCC(CO)CO)c(=O)[nH]1	YS (TK+)	plaque count	0.6 µg/mL
CCOP(=O)(O)COCCn1cnc2c(=O)[nH]c(N)nc21	07/1 (TK-)	plaque count	0.007 µg/mL
CC[Si]1(C(C)C)O[C@H]2[C@@H](O)[C@H](c3ccccc3)O[C@@H]2CO[Si](C(C)C)(C(C)C)O1	07/1	plaque count	>2 µg/mL
Nc1nc2c(ncn2C[C@]2(CO)C[C@H]2CO)c(=O)[nH]1	YS/R (TK-)	plaque count	16 µg/mL
Nc1nc2c(ncn2COCCO)c(=O)[nH]1	(TK-)/YS/R	plaque count	22.2 µg/mL
C[C@H](Cn1nc2nc(N)[nH]c(=O)c2n1)OCP(=O)(O)O	YS (TK+)	cytopathic effect	>20 µg/mL
CCCCCCCCc1cc2cn([C@H]3C[C@H](O)[C@@H](CO)O3)c(=O)nc2s1	OKA	plaque count	0.001 µM
CCOc1ccc(-c2cc3cn([C@H]4C[C@H](O)[C@@H](CO)O4)c(=O)nc3o2)cc1	OKA	plaque count	0.009 µM
O=c1nc2oc(CCCCCCCCCBr)cc2cn1[C@H]1C[C@H](O)[C@@H](CO)O1	OKA	plaque count	0.03 µM
C#CCCCCc1cc2cn([C@H]3C[C@H](O)[C@@H](CO)O3)c(=O)nc2o1	YS	plaque count	0.024 µM
CCCCCCCOCCc1cc2cn([C@H]3C[C@H](O)[C@@H](CO)O3)c(=O)nc2o1	YS	plaque count	22 µM
CC(C)C[C@H](NC(=O)n1nnc2ccccc21)C(=O)NC(c1ccccc1)c1ccccc1	07/1 (TK-)	plaque count	>0.64 µg/mL
Nc1nc2c(ncn2COCCO)c(=O)[nH]1	OKA	cytopathic effect	0.3 µg/mL
OC[C@H]1O[C@H](c2cc(F)c(F)cc2F)C[C@@H]1O	(TK-)07/1	plaque count	>200 µM
CC(C)CS[C@@H]1C[C@H](n2cnc3c(N)ncnc32)[C@@H](O)[C@H]1O	YS	cytopathic effect	>200 µg/mL
Cc1cc([C@H]2C[C@H](O)[C@@H](CO)O2)c(F)cc1F	(TK+)/OKA	plaque count	>200 µM
CCCCCCCOc1ccc(-c2cc3cn([C@H]4C[C@H](O)[C@@H](CO)O4)c(=O)nc3o2)cc1	YS	plaque count	0.006 µM
CCCCCCCC/C=C/CCCCCCCC(=O)OCC(CO)OCn1cnc2c(=O)[nH]c(N)nc21	YS	cytopathic effect	4.5 µM
OC[C@H]1O[C@@H](c2cc(C(F)(F)F)c(F)cc2F)C[C@@H]1O	(TK+)/OKA	plaque count	>200 µM
Cc1cccn2c(C3OCCS3)cnc12	OKA	-	>1000 µM
O=c1nc2oc(CCOC3CCCCO3)cc2cn1[C@H]1C[C@H](O)[C@@H](CO)O1	07/1 (TK-)	plaque count	>40 µM
Cc1cc([C@H]2C[C@H](O)[C@@H](CO)O2)c(Cl)cc1F	(TK+)/OKA	plaque count	>200 µM
CCCCCCCOCCc1cc2cn([C@H]3C[C@H](O)[C@@H](CO)O3)c(=O)nc2o1	YS	plaque count	8.1 µM
Nc1nc2c(ncn2CCC(CO)CO)c(=O)[nH]1	Clinical isolate VZV-22	cytopathic effect	6.44 µM
Nc1ccn(CC[C@H](O)CCO)c(=O)n1	OKA	cytopathic effect	>400 µg/mL
CCCCCCCCc1ccc(-c2cc3cn([C@H]4C[C@H](O)[C@@H](CO)O4)c(=O)nc3o2)cc1	YS	plaque count	0.03 µM
O=C(NC1CCCCC1)[C@H](Cc1ccccc1)NC(=O)n1nnc2ccccc21	(TK+)/OKA	plaque count	>3.2 µg/mL
CO[C@H]1[C@H]2O[Si](C(C)C)(C(C)C)O[Si](C(C)C)(C(C)C)OC[C@@H]2O[C@@H]1c1ccccc1	OKA	plaque count	>2 µg/mL
C[C@H](Cn1nc2ncnc(N)c2n1)OCP(=O)(O)O	07/1 (TK-)	cytopathic effect	5 µg/mL
CCCCCCCC#Cc1cn(S(=O)(=O)c2ccc(C)cc2)c(=O)[nH]c1=O	07/1	plaque count	>16 µM
OC[C@H]1CC(n2cnc3c(NC4CC4)ncnc32)C[C@@H]1CO	YS	-	>100 µg/mL
Nc1ncnc2nn(C[C@@H](CF)OCP(=O)(O)O)nc12	OKA (TK+)	cytopathic effect	>10 µg/mL
O=C(O)P(=O)(O)O	Clinical isolate VZV-33	cytopathic effect	89.7 µM
CCCCCCCC#Cc1c[nH]c(=O)[nH]c1=O	07/1	plaque count	34 µM
Cc1cn([C@H]2C/C(=N\O)[C@@H](CO)O2)c(=O)[nH]c1=O	YS	cytopathic effect	>200 µg/mL
OC[C@H]1O[C@@H](c2cc(C#CBr)c(F)cc2F)C[C@@H]1O	YS/R (TK-)	plaque count	>50 µM
CC1(C)[C@@H](CCO)C[C@H]1n1cnc2c(N)ncnc21	(TK+)/OKA	plaque count	>20 µg/mL
CO[C@H](CO)[C@@H](O)CCn1cnc2c(=O)[nH]c(N)nc21	YS	cytopathic effect	>400 µg/mL
CCCCCCCCCCc1cc2cn([C@H]3C[C@H](O)[C@@H](CO)O3)c(=O)nc2o1	YS	plaque count	0.008 µM
CCCCCCCCCCc1cc2cn([C@H]3C[C@H](O)[C@@H](CO)O3)c(=O)nc2o1	OKA	plaque count	0.015 µM
CC(C)C[C@H](NC(=O)n1nnc2ccccc21)C(=O)NCC1CCCCC1	07/1 (TK-)	plaque count	>16 µg/mL
CC1(C)[C@@H](CCO)C[C@H]1n1cnc2c(N)nc(N)nc21	TK+/YS	plaque count	>50 µg/mL
O=c1nc2oc(CCCC3OCCO3)cc2cn1[C@H]1C[C@H](O)[C@@H](CO)O1	YS	plaque count	>200 µM
OC[C@H]1O[C@@H](c2cc(F)c(F)cc2F)C[C@@H]1O	(TK-)/YS/R	plaque count	>200 µM
C#Cc1cn(S(=O)(=O)c2ccc(C)cc2)c(=O)[nH]c1=O	07/1	plaque count	>16 µM
Nc1nc2ncn(CCOCP(=O)(O)O)c2c(=O)[nH]1	OKA (TK+)	plaque count	0.02 µg/mL
CCCCCCc1cc2cn([C@H]3C[C@H](O)[C@@H](CO)O3)c(=O)nc2[nH]1	OKA	plaque count	>50 µM
Cc1cn(CC[C@H](O)CCO)c(=O)[nH]c1=O	OKA	cytopathic effect	>400 µg/mL
Cc1ccn2c(C(SCCc3ccccc3)SCCc3ccccc3)cnc2c1	OKA	-	>1000 µM
CCCCCCCCCCCCc1cc2cn([C@H]3C[C@H](O)[C@@H](CO)O3)c(=O)nc2[nH]1	YS	plaque count	14 µM
O=c1nc2oc(CCCCCCCCCCl)cc2cn1[C@H]1C[C@H](O)[C@@H](CO)O1	OKA	plaque count	0.04 µM
CO[C@H](CO)[C@@H](O)CCn1cc(C)c(=O)[nH]c1=O	OKA	cytopathic effect	>400 µg/mL
Nc1nc2c(ncn2COC(CO)CO)c(=O)[nH]1	YS/R (TK-)	cytopathic effect	24 µM
O=[N+]([O-])c1cc([C@H]2C[C@H](O)[C@@H](CO)O2)c(F)cc1F	(TK-)/YS/R	plaque count	>50 µM
Nc1ccn(C[C@@H](CO)OCP(=O)(O)O)c(=O)n1	YS/R (TK-)	plaque count	0.25 µg/mL
Nc1nc2c(ncn2[C@@H]2C[C@H](CO)[C@H]2CO)c(=O)[nH]1	(TK-)/YS/R	plaque count	0.8 µg/mL
Cc1cccn2c(C3OCCO3)cnc12	YS/R	-	>1000 µM
Nc1nc2c(ncn2COCCO)c(=O)[nH]1	ULF PE 9/84 (TK+)	-	6.5–20 µM
CCCCCCCCc1cc2cnc(=O)[nH]c2o1	OKA	plaque count	>80 µM

The last 8 rows once more:

{"compound": "CO[C@H](CO)[C@@H](O)CCn1cc(C)c(=O)[nH]c1=O", "strain or isolate": "OKA", "method": "cytopathic effect", "result": ">400 µg/mL"}
{"compound": "Nc1nc2c(ncn2COC(CO)CO)c(=O)[nH]1", "strain or isolate": "YS/R (TK-)", "method": "cytopathic effect", "result": "24 µM"}
{"compound": "O=[N+]([O-])c1cc([C@H]2C[C@H](O)[C@@H](CO)O2)c(F)cc1F", "strain or isolate": "(TK-)/YS/R", "method": "plaque count", "result": ">50 µM"}
{"compound": "Nc1ccn(C[C@@H](CO)OCP(=O)(O)O)c(=O)n1", "strain or isolate": "YS/R (TK-)", "method": "plaque count", "result": "0.25 µg/mL"}
{"compound": "Nc1nc2c(ncn2[C@@H]2C[C@H](CO)[C@H]2CO)c(=O)[nH]1", "strain or isolate": "(TK-)/YS/R", "method": "plaque count", "result": "0.8 µg/mL"}
{"compound": "Cc1cccn2c(C3OCCO3)cnc12", "strain or isolate": "YS/R", "result": ">1000 µM"}
{"compound": "Nc1nc2c(ncn2COCCO)c(=O)[nH]1", "strain or isolate": "ULF PE 9/84 (TK+)", "result": "6.5–20 µM"}
{"compound": "CCCCCCCCc1cc2cnc(=O)[nH]c2o1", "strain or isolate": "OKA", "method": "plaque count", "result": ">80 µM"}

An empty or dashed field is not shown. ECn is the concentration giving n% inhibition of infection, replication or growth. a–b is a range or a potency band.